Literature values as cited in PMC8206078, “Identification of pyrogallol as a warhead in design of covalent inhibitors for the SARS-CoV-2 3CL protease” (Nature Communications, 2021).

Target: SARS-CoV-2 Mpro
Details: cited from earlier work

GC376
Ki: 60 nM
